Compound potency records, mixed from different reports. Data source: NIAID ChemDB in PubChem.

Shared fields: growth or infection tests; species: Candida albicans; read by: broth dilution; read-out: MFC

Rows are shuffled and stem from different studies.

{"structure": "CCCCCCCCCCCCCCCCCCCCCC[C@H](O)CCCCCC", "value": "500 µM"}
{"structure": "CCCCN(CCCCCCOP(=O)([O-])OCC[N+](C)(C)C)c1c([N+](=O)[O-])cc(C(F)(F)F)cc1[N+](=O)[O-]", "strain or isolate": "Clinical isolate 44A", "value": ">16 µg/mL"}
{"structure": "C[C@@H]1[C@H](O)[C@@H](C)/C=C/C=C/C=C/C=C/C=C/C=C/C=C/[C@H](O[C@@H]2O[C@H](C)[C@@H](O)[C@H](N)[C@@H]2O)C[C@@H]2O[C@](O)(C[C@@H](O)C[C@@H](O)[C@H](O)CC[C@@H](O)C[C@@H](O)CC(=O)O[C@H]1C)C[C@H](O)[C@H]2C(=O)O", "strain or isolate": "ATCC 10231", "value": "0.193 µg/mL"}
{"structure": "O/N=C\\c1ccc(O)cc1", "value": ">7290 µM"}
{"structure": "C[C@H]1[C@H](O)[C@@H](C)/C=C/C=C/C=C/C=C/C=C/C=C/C=C/[C@H](O[C@@H]2O[C@H](C)[C@@H](O)[C@H](N)[C@@H]2O)C[C@@H]2O[C@](O)(C[C@@H](O)C[C@@H](O)CC[C@H](O)[C@@H](O)C[C@@H](O)CC(=O)O[C@H]1C)C[C@H](O)[C@H]2C(=O)O", "strain or isolate": "ATCC 10231", "value": "1 µg/mL"}
{"structure": "CN[C@H]1CC[C@@H](c2ccc(Cl)c(Cl)c2)c2ccccc21", "strain or isolate": "SC5314", "value": "48 µg/mL"}
{"structure": "C[N+](C)(C)CCOP(=O)([O-])OCCCCCC1CCCCCCCCCCCCCC1", "strain or isolate": "Clinical isolate 44A", "value": ">16 µg/mL"}
{"structure": "Clc1ccc(C(c2ccccc2)n2cnc3ccccc32)cc1", "value": ">256 µg/mL"}
{"structure": "C[N+](C)(C)CCOP(=O)([O-])OCCCCCCCCCCCC1C2CC3CC(C2)CC1C3", "strain or isolate": "ATCC 10231", "value": "8 µg/mL"}
{"structure": "O=C(c1ccccc1)C(c1ccccc1)n1cncn1", "value": "128 µg/mL"}
{"structure": "C[C@H]1[C@H](O)[C@@H](C)/C=C/C=C/C=C/C=C/C=C/C=C/C=C/[C@H](O[C@@H]2O[C@H](C)[C@@H](O)[C@H](N)[C@@H]2O)C[C@@H]2O[C@](O)(C[C@@H](O)C[C@@H](O)CC[C@H](O)[C@@H](O)C[C@@H](O)CC(=O)O[C@H]1C)C[C@H](O)[C@H]2C(=O)O", "strain or isolate": "ATCC 90028", "value": "0.5 µg/mL"}
{"structure": "C[C@H]1[C@H](O)[C@@H](C)/C=C/C=C/C=C/C=C/C=C/C=C/C=C/[C@H](O[C@@H]2O[C@H](C)[C@@H](O)[C@H](N)[C@@H]2O)C[C@@H]2O[C@](O)(C[C@@H](O)C[C@@H](O)CC[C@H](O)[C@@H](O)C[C@@H](O)CC(=O)O[C@H]1C)C[C@H](O)[C@H]2C(=O)O", "value": ">50 µg/mL"}
{"structure": "O=C(c1ccccc1)C(c1ccccc1)n1ccnc1", "value": ">256 µg/mL"}
{"structure": "CCOc1ccc2nc3cc(N=C4NC(=O)/C(=C\\c5ccc([N+](=O)[O-])o5)S4)ccc3c(N)c2c1", "strain or isolate": "ATCC 60193", "value": "250 µM"}